Measurements from “University of Dundee, Small-Polar-MMV Screening Library” (2021), ChEMBL document CHEMBL3988442.

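Whole-cell growth test on Mycobacterium tuberculosis, read after 3 days in glucose-containing 7H9 medium; the read-out is not stated. Compounds at 500 µM. Higher reads as more growth inhibition (inferred: compounds with an IC50 in retests scored well above the rest). Of about 18,000 compounds tested this way, about 1,400 (7.9%) reached 50% or more in at least one test.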

Values are the deposited “Percent Effect”, in %. The record does not define 0% and 100%; most values in the screen are far below 50% and negative numbers occur (in some assays of this library far below -100). The entries come from a sample that favours strong results.

CCNCC(=O)NC1CCS(=O)(=O)C1 (configuration not stated) read 6.137%. With CCCN(CC(N)=O)S(=O)(=O)c1ccc(C)cc1 the screen gave 13.01%. For N#Cc1nc(-c2ccccc2)oc1NCCCO the result was 53.16%. CC(C)(C)c1cc(CO)no1 read 11.91%.

Result for CC(=O)c1ccc(CN)nc1C was -5.48%. With CC(C)C(C)(C#N)NC(=O)CN1CCCCC1 (configuration not stated) the screen gave 3.343%. For CNC(CO)c1cc(OC)ccc1Br (configuration not stated) the result was -4.561%. CC(C)NC(=O)CNC(C)CC(=O)Nc1ccccc1 (configuration not stated) gave -9.267%.

CCc1nc(CNc2ncccc2S(N)(=O)=O)cs1 gave 34.34%. CCC(C)(N)c1nc(=O)c2c([nH]1)CCC2 (configuration not stated) read -1.916%. CC(CNC(=O)NCc1ccncc1)N(C)C1CC1 (configuration not stated) gave 0.7607%. CC(=O)Nc1nc(COc2ccccc2C(N)=O)cs1 read 24.91%.

CC(C)Sc1nc(-c2ccccn2)no1 read 63.43%. For COc1cccc(S(=O)(=O)CCN(C)CCO)c1 the result was 96.44%. CCN1CCN(Cc2ccc(OC)c(OC)c2)CC1 read -3.201%. CCn1cnnc1CNC(=O)N1CCCN(C)CC1 read -3.238%.

For CN1CC(C(=O)N2CCc3cc(Br)ccc32)CC1=O (configuration not stated) the result was -14.75%. O=C(NCC1CC1)c1cccc2nn[nH]c12 gave 70.94%. CC1CN(CCC(=O)Nc2cccnc2)CCCO1 (configuration not stated) gave 2.145%. OCC1(NCC2CC2)CCNCC1 read -12.67%.

With CS(=O)(=O)NC1CNC1 the screen gave -13.73%. COCCOc1ccc(CNC(=O)c2ccoc2)cn1 gave 24.79%. For CCCC(=O)N1CCC2(CC1)NCCc1[nH]cnc12 the result was 6.318%. With O=C(c1cccc(C(F)(F)F)c1)N1CCC(O)CC1 the screen gave 19.02%.

CCc1nc(N)nc(NCC(O)CN(C)C)c1C (configuration not stated) gave 7.514%. NC(=O)c1ncccc1CO read -7.971%. With O=C(NCCOCc1ccccc1)c1ccco1 the screen gave 60.73%. For CCC(NC(=O)NCC(=O)N1CCCC1)c1nccs1 (configuration not stated) the result was -10.37%.

With Cc1c(C(=O)NC2=NCCS2)oc2ccccc12 the screen gave 86.52%. For NCCNS(=O)(=O)c1cccc2nsnc12 the result was 19.65%. For Cc1ccc(C(=O)N(C)C)cc1Oc1ccncc1 the result was -5.033%. CCc1cnc(N2CCNCC2)s1 gave 21.44%.

CCc1ccc(C(=O)CSc2nnc(N)[nH]2)cc1 gave 40.45%. Result for CC(C)(C)OC(=O)N1CCN(C(N)=O)CC1 was 0.8513%. For CCNC1CCOC(C)(C)C1 (configuration not stated) the result was -7.017%. With Cc1occc1[S+]([O-])CC(=O)c1ccc[nH]1 (configuration not stated) the screen gave 2.473%.

With O=C(C1CCCCO1)N1CCN(c2ccncc2)CC1 (configuration not stated) the screen gave 11.01%. With O=C(OCC(=O)N1CCNC1=O)c1ccc(O)cc1 the screen gave 19.07%. Result for Cc1cc(NC(=O)CN2CCCC2C(=O)N(C)C)on1 (configuration not stated) was -0.06833%. Result for CNC(=O)C(O)CNS(=O)(=O)c1ccc(C)cc1F (configuration not stated) was 7.335%.

Result for O=C(NCCO)NCc1c(F)cc(Br)cc1F was 20.03%. For Cc1cc(C)cc(OCC(=O)N2CCNC(=O)C2)c1 the result was 23.14%. Cn1nnnc1SCCNCc1ccc(Br)cc1 read 78.24%. For CN1C(=O)C(C)(C)c2cc(NC(=O)C3CC3)ccc21 the result was 39.95%.

For CCc1nnc(CNC(=O)c2cnn(CC)c2C)s1 the result was 24.5%. N#CCCCn1ccccc1=O gave -1.968%. For COc1ncccc1C(=O)NC(C)c1ccncc1 (configuration not stated) the result was 14.57%. Result for O=C(CCN1CCC[C@H]1CO)N1CCc2ccccc21 was 4.499%.

NS(=O)(=O)N1CCN(CCCc2cccc(F)c2)CC1 read 57.38%. With CCC(C)CN(C)CCN (configuration not stated) the screen gave 10.57%. For CN(C)C(=O)N1CCN(c2cccc(F)c2C#N)CC1 the result was 0.8101%. CC(C)(C)OC(=O)N1CCC(n2cc(N)cn2)CC1 gave 56.11%.

For CN1CCN(C(=O)CCn2cncn2)CC1 the result was 5.2%. Result for CC(NC(=O)CNC(=O)C1CC1)c1ccc(F)c(F)c1 (configuration not stated) was 28.06%. Cc1ccc(C(=O)NCC(c2ccco2)N(C)C)cn1 (configuration not stated) gave 22.73%. CC(C)(N)c1nc(=O)c2c([nH]1)CCC2 gave 0.9383%.

CNC(=O)CSCc1nc(-c2ccccc2C)no1 gave 66.58%. CN1CCN(C(=O)C2CCCNC2)CC1 (configuration not stated) read 2.285%.

For reference, 4 entries once more:

SMILES,percent effect
CN1CCN(C(=O)CCn2cncn2)CC1,5.2%
CNC(=O)C(O)CNS(=O)(=O)c1ccc(C)cc1F (configuration not stated),7.335%
NC(=O)c1ncccc1CO,-7.971%
CN1CCN(C(=O)C2CCCNC2)CC1 (configuration not stated),2.285%